Tested on: MCF-10A cells
Experiment: MTT cell viability assay, nonmalignant MCF-10A
Format: cell-based, human
Description: The anticancer activity of the studied compounds (3a–h) was explored with regards to two human breast cancer cell lines, namely the estrogen receptor positive (ER+) MCF-7 cells and the triple negative MDA-MB-231 cells (ER-, PR-, and HER-2/Neu-). Cells were continuously exposed to the test substances for 72 h, after which their viability was assessed by means of the MTT assay. Table 2 lists the determined IC50 values for the investigated substances and the reference drug, thalidomide. […] Additionally, the same test for all the compounds has been performed on nonmalignant breast epithelial cells (MCF-10A) to ascertain their potential cytotoxicity.
The four cell lines used in this work (MCF-7, MDA-MB-231, MCF-10A, and 3T3-L1) were obtained from the American Type Culture Collection (ATCC, Manassas, VA, USA). […]
Cell viability was evaluated by means of the 3-(4,5-dimethylthiazol-2-y1)-2,5-diphenyltetra zolium bromide (MTT, Sigma-Aldrich, Milan, Italy) assay. […] Cells were lysed with DMSO after 2 h of incubation at 37 °C, and optical density at 570 nm was then determined with a microplate reader. Using GraphPad Prism 9 software (GraphPad Inc., San Diego, CA, USA), the mean absorbance for each sample was expressed as a percentage over the control and plotted vs. drug concentrations to establish the IC50 values. […]

O=C1c2ccccc2C(=O)N1c1nc2ccc(Oc3ccccc3)cc2s1 [3h, 2-[6-Phenoxy-1,3-benzothiazol-2-yl]-1H-isoindole-1,3(2H)-dione]
IC50 on MCF-10A relative to MCF-7 (fold higher) (selectivity nonmalignant vs MCF-7 cancer cells): ~7 fold | IC50 on MCF-10A relative to MDA-MB-231 (fold higher) (selectivity nonmalignant vs MDA-MB-231 cancer cells): about 13 fold

Source: publication PMC10740580, “Benzothiazole-Phthalimide Hybrids as Anti-Breast Cancer and Antimicrobial Agents” (Antibiotics, 2023)
